Two compounds from patent US8884011B2, “Nucleotide analogues as precursor molecules for antivirals” (Centre National de la Recherche Scientifique-CNRS, priority 2006, dated 2014) can be followed below.

One data set relates to HIV-1 (IIIB). The data set can be described thus: Anti-HIV test in CEM cell cultures, syncytium formation, HIV-1 (IIIB). As to conditions: CEM cells. The procedure:
Briefly, CEM cells (4.5×10^5 cells per ml) were suspended in fresh culture medium and infected with HIV-1 at 100 CCID50 per ml of cell suspension. Then, 100 μl of the infected cell suspension were transferred to microplate wells, mixed with 100 μl of the appropriate dilutions of the test compounds, and further incubated at 37° C. After 4 to 5 days, giant cell formation was recorded microscopically in the CEM cell cultures.

Another data set deals with HIV-2 (ROD). Nature of the data set: Anti-HIV test in CEM cell cultures, syncytium formation, HIV-2 (ROD). The conditions noted are these: CEM cells.
The next data set concerns HIV-1-LAI. Nature of the data set: Anti-HIV test in CMSP cultures infected by HIV-1-LAI (RT activity in supernatants). Format: cell-based.

Regarding `C[C@H](Cn1cnc2c(N)ncnc21)OCP(O)(O)=S` [Compound 11, (R)-9-[2-(thiophosphonomethoxy)propyl]adenine], in the data set on HIV-1 (IIIB), the “SI HIV-1 (TC50/EC50)” value was found to be 15. The “SI HIV-2 (TC50/EC50)” value with HIV-2 (ROD) was found to be 19. The “IT (selectivity index, TC50/EC50)” value with HIV-1-LAI was greater than 63.

Consider `Nc1ncnc2c1ncn2CCOCP(O)(O)=S` [Compound 6, 9-[2-(thiophosphonomethoxy)ethyl]adenine], for which, in the data set on HIV-1 (IIIB), the “SI HIV-1 (TC50/EC50)” value stood at 27. Also, the “SI HIV-2 (TC50/EC50)” value in the data set with HIV-2 (ROD) turned out to be 31. Moreover, the “IT (selectivity index, TC50/EC50)” value with HIV-1-LAI is recorded as greater than 6.
